# Reference: patent publication US20250092029A1 (THE WISTAR INSTITUTE OF ANATOMY AND BIOLOGY, priority 2022, published 2025)
# Columns and labels:
# [1] = target: SARS-CoV-2 Mpro (Severe acute respiratory syndrome coronavirus 2 (2019-nCoV) (SARS-CoV-2), UniProt P0DTD1); settings: read-out: MPro IC50
# [2] = Metabolic stability in mouse liver microsomes
smiles,measurement,setting,value
O=C(CN1C(=O)[C@@H](NC(=O)c2cc3ccccc3cn2)COc2ccccc21)N[C@@H](C[C@@H]1CCNC1=O)C(=O)COC(=O)c1c(Cl)cccc1Cl,IC50,[1],0.58 µM
same,half-life (T1/2),[2],less than 2 minutes
